Molecular target: rKgp: mature recombinant Kgp catalytic domain with the ABM1 motif (Gly681-Ala710) deleted (Porphyromonas gingivalis W50)

Kgp propeptide dimer (covalent, through the single cysteine) (from UniProt Q51817 20-228) (complex)
inhibition of 0.15 µM rKgp by the dimer, substrate GPKNA: < 5 % inhibition | inhibition of 0.15 µM rKgp by the equivalent dimer, substrate DQ-BSA: < 4 % inhibition

From publication PMC3677877 (2013)
